Measured data: PubChem BioAssay AID624099 (ICCB-Longwood, 2012)
In all, the deposit lists about 21,000 reagents; this is a random part of them. Of all reagents, 497 (2.4%) were called active. 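Higher z means weaker E2 silencing; only reporter increases were scored, and knock-downs that hurt cell survival may mask genuine repressor factors.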 No sequences are given here.

- Test: 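Human genes that papillomavirus E2 requires to repress the HPV18 LCR promoter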 (primary screen)
- Cell system: human C33A cervical carcinoma cells (HPV-negative) stably expressing BPV1 E2 and an HPV18 LCR luciferase reporter
- Knock-down reagent: siRNA pool against human genes, 40 nM
- Duration: 72 h
- Read-out: 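Per-well luciferase luminescence, z-scored on each plate against the plate mean and SD with control wells left out, then averaged across three replicate plates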
- Direction: mean z-score and z-score: higher = stronger reporter signal, weaker E2 silencing
- Active means: 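Mean z ≥ 2 together with z ≥ 2 in two or more of the three replicates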

| gene knocked down | mean z-score | z-score, replicate A | z-score, replicate B | z-score, replicate C | activity call |
| --- | --- | --- | --- | --- | --- |
| RPL5 (ribosomal protein L5) | -2.89 | -3 | -2.8 | -2.87 | inactive |
| LOC339782 (retired record) | -0.48 | -0.44 | -0.46 | -0.54 | inactive |
| FAM111B (FAM111 trypsin like peptidase B) | -0.42 | -0.28 | -0.69 | -0.29 | inactive |
| TMC8 (transmembrane channel like 8) | -0.98 | -1.04 | -0.81 | -1.09 | inactive |
| MMP28 (matrix metallopeptidase 28) | -0.99 | -0.98 | -1.17 | -0.81 | inactive |
| DHRS7B (dehydrogenase/reductase 7B) | -0.81 | -0.64 | -0.63 | -1.15 | inactive |
| CNNM2 | -0.46 | -0.54 | -0.28 | -0.57 | inactive |
| MROH2B (maestro heat like repeat family member 2B) | 1.77 | 1.9 | 1.58 | 1.82 | inactive |
| MARCKS (myristoylated alanine rich protein kinase C substrate) | 0.49 | 1.09 | -0.19 | 0.58 | inactive |
| HNRNPH1 (heterogeneous nuclear ribonucleoprotein H1) | -0.23 | -0.4 | -0.17 | -0.12 | inactive |
| PRODH2 (proline dehydrogenase 2) | -0.84 | -0.56 | -0.78 | -1.18 | inactive |
| ARL4AP1 (ARF like GTPase 4A pseudogene 1) | 1.12 | 1.14 | 1.06 | 1.15 | inactive |
| SERPINA11 (serpin family A member 11) | -1.02 | -1.03 | -0.79 | -1.24 | inactive |
| RIPK1 (receptor interacting serine/threonine kinase 1) | 0.28 | 0.23 | 0 | 0.61 | inactive |
| KRTAP3-2 (keratin associated protein 3-2) | 1.98 | 2.14 | 1.93 | 1.87 | inactive |
| DGAT2L6 (diacylglycerol O-acyltransferase 2 like 6) | -0.27 | -0.32 | -0.07 | -0.42 | inactive |
| DENND4B (DENN domain containing 4B) | -0.87 | -1.26 | -0.53 | -0.82 | inactive |
| DTX3 (deltex E3 ubiquitin ligase 3) | -0.74 | -0.56 | -0.75 | -0.93 | inactive |
| RC3H1 (ring finger and CCCH-type domains 1) | 0.71 | 0.62 | 0.53 | 0.97 | inactive |
| KIF23 (kinesin family member 23) | -0.06 | -0.02 | 0 | -0.16 | inactive |
| VCP (valosin containing protein) | -1.14 | -1.18 | -0.89 | -1.36 | inactive |
| FERMT3 (FERM domain containing kindlin 3) | -0.02 | -0.02 | 0.01 | -0.05 | inactive |
| TRIM75 (tripartite motif containing 75) | 0.34 | 0.23 | 0.75 | 0.04 | inactive |
| GPR155 (G protein-coupled receptor 155) | -0.85 | -0.65 | -0.91 | -1 | inactive |
| LYPLA1 (lysophospholipase 1) | -0.61 | -0.52 | -0.46 | -0.84 | inactive |
| HSPD1 (heat shock protein family D (Hsp60) member 1) | -0.52 | 0.01 | -0.84 | -0.74 | inactive |
| ZC3H13 (zinc finger CCCH-type containing 13) | 2.75 | 2.75 | 2.43 | 3.05 | active |
| SNX33 (sorting nexin 33) | -0.17 | 0.15 | -0.09 | -0.57 | inactive |
| F2 (coagulation factor II, thrombin) | 1.06 | 1.15 | 1.01 | 1.01 | inactive |
| ARHGEF25 (Rho guanine nucleotide exchange factor 25) | 1.44 | 1.24 | 1.37 | 1.72 | inactive |
| MRPL49 (mitochondrial ribosomal protein L49) | 0.42 | 0.39 | 0.38 | 0.5 | inactive |
| UBLCP1 (ubiquitin like domain containing CTD phosphatase 1) | 0.52 | 0.51 | 0.34 | 0.71 | inactive |
| ABRACL (ABRA C-terminal like) | 0.76 | 1.23 | 0.87 | 0.17 | inactive |
| LOC389300 (retired record) | -1.07 | -1.15 | -0.75 | -1.32 | inactive |
| MOSPD1 (motile sperm domain containing 1) | 0.47 | 0.65 | 0.54 | 0.21 | inactive |
| LINC00052 (long independently transcribed non-coding RNA 52) | -0.83 | -0.76 | -1.06 | -0.68 | inactive |
| FKBPL (FKBP prolyl isomerase like) | -0.51 | 0.37 | -0.72 | -1.18 | inactive |
| LOC400682 (zinc finger protein 100-like) | 1.07 | 1.01 | 1.24 | 0.95 | inactive |
| SLC22A3 | -0.99 | -0.86 | -1.01 | -1.1 | inactive |
| PARVG (parvin gamma) | 0.23 | -0.2 | 0.11 | 0.78 | inactive |
| JRKL (JRK like) | 0.13 | 0.12 | 0.07 | 0.2 | inactive |
| SYT2 (synaptotagmin 2) | -0.01 | -0.12 | 0.18 | -0.11 | inactive |
| ATP2A2 | 0.86 | 0.75 | 0.7 | 1.13 | inactive |
| GID8 (GID complex subunit 8 homolog) | 0.58 | 0.93 | 0.87 | -0.06 | inactive |
| FBXO2 (F-box protein 2) | -0.22 | -0.06 | -0.27 | -0.33 | inactive |
| LOC728148 (retired record) | -0.72 | -0.6 | -0.81 | -0.74 | inactive |
| PTPRQ (protein tyrosine phosphatase receptor type Q) | 0.27 | -0.03 | -0.04 | 0.9 | inactive |
| FAM181B (family with sequence similarity 181 member B) | 0.5 | 0.42 | 0.53 | 0.55 | inactive |
| CCDC91 (coiled-coil domain containing 91) | -0.78 | -1.07 | -0.95 | -0.32 | inactive |
| FDX2 (ferredoxin 2) | -2.29 | -2.58 | -2 | -2.28 | inactive |
| FLJ42220 (retired record) | -0.56 | -0.38 | -0.75 | -0.56 | inactive |
| MNAT1 (MNAT1 component of CDK activating kinase) | -0.32 | -0.31 | -0.27 | -0.36 | inactive |
| CFL1 (cofilin 1) | -0.24 | -1.37 | 0.25 | 0.41 | inactive |
| KCNK7 (potassium two pore domain channel subfamily K member 7) | -0.95 | -0.73 | -0.92 | -1.2 | inactive |
| AMBP (alpha-1-microglobulin/bikunin precursor) | 0.03 | -0.19 | 0.1 | 0.17 | inactive |
| LOC345711 (retired record) | -0.25 | 0.13 | -0.48 | -0.4 | inactive |
| TAF1B | 0.26 | 0.08 | 0.42 | 0.28 | inactive |
